Laboratory results published in patent US11613546B2, “Substituted pyridotriazine compounds and uses thereof” (Gilead Sciences, Inc., priority 2021, dated 2023).

test system: pLai RLuc reporter virus; experiment: HIV MT-4 serum shift antiviral reporter assay; format: cell-based; details: EC50 (HS/CCM)/EC50 (CCM) fold shift, measure of protein binding
Experimental: To quantify the amount of protein binding to human serum, compounds were serially diluted (1:3) in DMSO and acoustically transferred onto 384-well assay plates via a Labcyte ECHO robot. Each plate contained up to 8 test compounds, including negative and positive controls, (DMSO, 5 μM AZT respectively). Assay plates were prepared in duplicate, and tested in either CCM (cell culture media) or HS/CCM (human serum/cell culture media). MT-4 cells were first pre-infected with pLai RLuc reporter virus for 2 h at 37° C., then further diluted in either CCM (RPMI media, 10% FBS, 1% P/S) or HS/CCM (RPMI media, 10% FBS, 50% HS, 1% P/S), and subsequently added to each plate using a Biotek Micro Flow dispenser. After a 72-h incubation in a humidified and temperature controlled incubator (37° C.), Renilla Glo (Promega) was added to all assay plates and chemiluminescence read using an Envision plate-reader. EC50 values were defined as the compound concentration that causes a 50% decrease in luminescence signal, and were calculated using a sigmoidal dose-response model to generate curve fits. To determine the amount of protein binding, EC50 fold shifts (or EC50 shifts) were calculated by dividing EC50 (HS/CCM)/EC50 (CCM).

Point of comparison: `CO[C@@H]1C[C@@H](C)N2CN(C(=O)c3c(O)c(=O)c(C(=O)NCc4c(F)cc(F)cc4F)cn32)[C@H]1C` [Example C33, (1S,2R,4R,5S)-8-hydroxy-4-methoxy-2,5-dimethyl-7,9-dioxo-N-(2,4,6-trifluorobenzyl)-2,3,4,5,7,9-hexahydro-1,6-methanopyrido[1,2-b][1,2,5]triazonine-10-carboxamide], “RLUC Shift” value 2.3. Against it:
- CO[C@@H]1[C@H](OC)[C@@H](C)N2CN(C(=O)c3c(O)c(=O)c(C(=O)NCc4c(F)cc(F)cc4F)cn32)[C@H]1C [Example C32, (1S,2R,3R,4S,5S)-8-hydroxy-3,4-dimethoxy-2,5-dimethyl-7,9-dioxo-N-(2,4,6-trifluorobenzyl)-2,3,4,5,7,9-hexahydro-1,6-methanopyrido[1,2-b][1,2,5]triazonine-10-carboxamide] — lower, 1.9
- C[C@@H]1C[C@H](F)[C@H](C)N2CN1n1cc(C(=O)NCc3c(F)cc(F)cc3F)c(=O)c(O)c1C2=O [Example C34, (1S,2R,4S,5S)-4-fluoro-8-hydroxy-2,5-dimethyl-7,9-dioxo-N-(2,4,6-trifluorobenzyl)-2,3,4,5,7,9-hexahydro-1,6-methanopyrido[1,2-b][1,2,5]triazonine-10-carboxamide] — higher, 1587
- C[C@@H]1CC(F)(F)[C@H](C)N2CN1n1cc(C(=O)NCc3c(F)cc(F)cc3F)c(=O)c(O)c1C2=O [Example C35, (1S,2R,5S)-4,4-difluoro-8-hydroxy-2,5-dimethyl-7,9-dioxo-N-(2,4,6-trifluorobenzyl)-2,3,4,5,7,9-hexahydro-1,6-methanopyrido[1,2-b][1,2,5]triazonine-10-carboxamide] — higher, 149
- C[C@@H]1CC[C@H](C)N2CN1n1cc(C(=O)NCc3ccc(F)cc3F)c(=O)c(O)c1C2=O [Example C37, (1S,2R,5S)—N-(2,4-difluorobenzyl)-8-hydroxy-2,5-dimethyl-7,9-dioxo-2,3,4,5,7,9-hexahydro-1,6-methanopyrido[1,2-b][1,2,5]triazonine-10-carboxamide] — higher, 375
- CO[C@H]1C[C@@H](C)N2CN(C[C@H]1OC)C(=O)c1c(O)c(=O)c(C(=O)NCc3ccc(F)cc3F)cn12 [Example C39, (1S,2R,4S,5R)—N-(2,4-difluorobenzyl)-9-hydroxy-4,5-dimethoxy-2-methyl-8,10-dioxo-3,4,5,6,8,10-hexahydro-2H-1,7-methanopyrido[1,2-b][1,2,5]triazecine-11-carboxamide] — higher, 5
- C[C@H]1CCCCN2CN1n1cc(C(=O)NCc3ccc(F)cc3F)c(=O)c(O)c1C2=O [Example C40, (1S,2S)—N-(2,4-difluorobenzyl)-9-hydroxy-2-methyl-8,10-dioxo-3,4,5,6,8,10-hexahydro-2H-1,7-methanopyrido[1,2-b][1,2,5]triazecine-11-carboxamide] — higher, 103
- C[C@H]1C/C=C\CN2CN1n1cc(C(=O)NCc3ccc(F)cc3F)c(=O)c(O)c1C2=O [Example C41, (1S,2S,Z)—N-(2,4-difluorobenzyl)-9-hydroxy-2-methyl-8,10-dioxo-3,6,8,10-tetrahydro-2H-1,7-methanopyrido[1,2-b][1,2,5]triazecine-11-carboxamide] — higher, 97
- C[C@H]1CCCCN2CN1n1cc(C(=O)NCc3ccc(F)cc3F)c(=O)c(O)c1C2=O [Example C42, (1R,2S)—N-(2,4-difluorobenzyl)-9-hydroxy-2-methyl-8,10-dioxo-3,4,5,6,8,10-hexahydro-2H-1,7-methanopyrido[1,2-b][1,2,5]triazecine-11-carboxamide] — higher, 761
- C[C@H]1C/C=C\CN2CN1n1cc(C(=O)NCc3ccc(F)cc3F)c(=O)c(O)c1C2=O [Example C43, (1R,2S,Z)—N-(2,4-difluorobenzyl)-9-hydroxy-2-methyl-8,10-dioxo-3,6,8,10-tetrahydro-2H-1,7-methanopyrido[1,2-b][1,2,5]triazecine-11-carboxamide] — higher, 324
- CO[C@@H]1C=C[C@H](C)N2CN1n1cc(C(=O)NCc3c(F)cc(F)cc3F)c(=O)c(O)c1C2=O [Example C46, (1R,2R,5S)-8-hydroxy-2-methoxy-5-methyl-7,9-dioxo-N-(2,4,6-trifluorobenzyl)-2,5,7,9-tetrahydro-1,6-methanopyrido[1,2-b][1,2,5]triazonine-10-carboxamide] — higher, 1071
- C[C@@H]1C=C[C@H](CF)N2CN1n1cc(C(=O)NCc3ccc(F)cc3F)c(=O)c(O)c1C2=O [Example C49a, (1S,10R,13R)—N-[(2,4-difluorophenyl)methyl]-10-(fluoromethyl)-6-hydroxy-13-methyl-5,8-dioxo-1,2,9-triazatricyclo[7.4.1.02,7]tetradeca-3,6,11-triene-4-carboxamide] — higher, 220
- C[C@@H]1CC[C@H](CF)N2CN1n1cc(C(=O)NCc3ccc(F)cc3F)c(=O)c(O)c1C2=O [Example C49b, (1S,10R,13R)—N-[(2,4-difluorophenyl)methyl]-10-(fluoromethyl)-6-hydroxy-13-methyl-5,8-dioxo-1,2,9-triazatricyclo[7.4.1.02,7]tetradeca-3,6-diene-4-carboxamide] — higher, 450
- C[C@@H]1CC[C@H](CF)N2CN1n1cc(C(=O)NCc3c(F)cc(F)cc3F)c(=O)c(O)c1C2=O [Example C51, (1S,2R,5R)-5-(fluoromethyl)-8-hydroxy-2-methyl-7,9-dioxo-N-(2,4,6-trifluorobenzyl)-2,3,4,5,7,9-hexahydro-1,6-methanopyrido[1,2-b][1,2,5]triazonine-10-carboxamide] — higher, 180
- C[C@@H]1C=C[C@@H](C)N2CN1C(=O)c1c(O)c(=O)c(C(=O)NCc3c(F)cc(F)cc3F)cn12 [Example C64, (1S,2R,5R)-8-hydroxy-2,5-dimethyl-7,9-dioxo-N-(2,4,6-trifluorobenzyl)-2,5,7,9-tetrahydro-1,6-methanopyrido[1,2-b][1,2,5]triazonine-10-carboxamide] — higher, 549
- CC[C@@H]1C=C[C@H](C)N2CN1n1cc(C(=O)NCc3c(F)cc(F)cc3F)c(=O)c(O)c1C2=O [Example C72, (1S,2R,5S)-2-ethyl-8-hydroxy-5-methyl-7,9-dioxo-N-(2,4,6-trifluorobenzyl)-2,5,7,9-tetrahydro-1,6-methanopyrido[1,2-b][1,2,5]triazonine-10-carboxamide] — higher, 772
- C[C@H]1C=C[C@@H](CF)N2CN1C(=O)c1c(O)c(=O)c(C(=O)NCc3c(F)cc(F)cc3F)cn12 [Example C76, (1S,2S,5S)-2-(fluoromethyl)-8-hydroxy-5-methyl-7,9-dioxo-N-(2,4,6-trifluorobenzyl)-2,5,7,9-tetrahydro-1,6-methanopyrido[1,2-b][1,2,5]triazonine-10-carboxamide] — higher, 632
- C[C@H]1CC[C@@H](C(F)F)N2CN1C(=O)c1c(O)c(=O)c(C(=O)NCc3c(F)cc(F)cc3F)cn12 [Example C78, (1S,2S,5S)-2-(difluoromethyl)-8-hydroxy-5-methyl-7,9-dioxo-N-(2,4,6-trifluorobenzyl)-2,3,4,5,7,9-hexahydro-1,6-methanopyrido[1,2-b][1,2,5]triazonine-10-carboxamide] — higher, 2470
- C[C@H]1C=C[C@H](CF)N2CN1C(=O)c1c(O)c(=O)c(C(=O)NCc3c(F)cc(F)cc3F)cn12 [Example C80, (1R,2R,5S)-2-(fluoromethyl)-8-hydroxy-5-methyl-7,9-dioxo-N-(2,4,6-trifluorobenzyl)-2,5,7,9-tetrahydro-1,6-methanopyrido[1,2-b][1,2,5]triazonine-10-carboxamide] — higher, 652
- C[C@H]1C=C[C@]2(CCOC2)N2CN1C(=O)c1c(O)c(=O)c(C(=O)NCc3c(F)cc(F)cc3F)cn12 [Example C84, (1′S,3S,5′S)-8′-hydroxy-5′-methyl-7′,9′-dioxo-N-(2,4,6-trifluorobenzyl)-4,5,7′,9′-tetrahydro-2H,5′H-spiro[furan-3,2′-[1,6]methanopyrido[1,2-b][1,2,5]triazonine]-10′-carboxamide] — higher, 95
- C[C@@H]1[C@H]2C[C@H]2[C@H](C)N2CN1n1cc(C(=O)NCc3c(F)cc(F)cc3F)c(=O)c(O)c1C2=O [Example C89, (1aS,2R,3R,11S,11aR)-8-hydroxy-2,11-dimethyl-7,9-dioxo-N-(2,4,6-trifluorobenzyl)-1a,2,7,9,11,11a-hexahydro-1H-3,10-methanocyclopropa[g]pyrido[1,2-b][1,2,5]triazonine-6-carboxamide] — higher, 34
- C[C@H]1C=CC(C)(C)N2CN1n1cc(C(=O)NCc3ccc(F)cc3F)c(=O)c(O)c1C2=O [Example C91, (1R,2S)—N-(2,4-difluorobenzyl)-8-hydroxy-2,5,5-trimethyl-7,9-dioxo-2,5,7,9-tetrahydro-1,6-methanopyrido[1,2-b][1,2,5]triazonine-10-carboxamide] — higher, 291
- C[C@H]1C=CC(C)(C)N2CN1n1cc(C(=O)NCc3ccc(F)cc3F)c(=O)c(O)c1C2=O [Example C92, (1S,2S)—N-(2,4-difluorobenzyl)-8-hydroxy-2,5,5-trimethyl-7,9-dioxo-2,5,7,9-tetrahydro-1,6-methanopyrido[1,2-b][1,2,5]triazonine-10-carboxamide] — higher, 368
